Anti-infective test results gathered from many reports (values: NIAID ChemDB through PubChem).

Shared fields: target-level tests

An empty or dashed field is not shown.

SMILES | agent | strain | mutations | target | read by | read-out | dose | value
NOCc1c(F)cccc1Cl | HIV-1 | - | - | gp120 | ELISA | inhibition | 100 µg/mL | 21.7%
COc1cc2c(cc1OC)[C@H](c1cc(OC)c(OC)c(OC)c1)[C@@H](C)[C@@H](C)C2 | HIV-1 | - | - | RNase H | RNase H | IC50 | - | >10 µM
O=C1N(Cc2ccc(CO)cc2)[C@H](COc2ccccc2)[C@H](O)[C@@H](O)[C@@H](COc2ccccc2)N1Cc1ccc(CO)cc1 | HIV | - | PR-I84V | Protease | fluorescence | fold resistance | - | 1.74
C[C@H]1[C@H](O)c2c(c3c(c4c(-c5ccccc5)cc(=O)oc24)OC(C)(C)C=C3)O[C@@H]1C | HIV-2 | - | RT-Y181C | Reverse transcriptase | scintillation proximity / radiometric | IC50 | - | 0.16 µM
CC[C@H]1C=CCC[C@@]2(C[C@@H]3CC[C@@H]4[C@H](C(=O)OCCCCCC(=O)N(CCC[NH3+])C[C@@H](O)CC[NH3+])[C@]5(CCC[C@@H](C)O5)NC(=[N+]34)N2)O1 | HIV-1 | NL4-3 | - | Nef | ELISA | IC50 | - | <5 µM
Oc1[nH]c2ccc(Cl)cc2c1N=Nc1nc(-c2ccc(F)cc2F)cs1 | HIV-1 | - | - | RNase H | RNase H / fluorescence | IC50 | - | 6 µM
Nc1nc2c(ncn2[C@H]2CC[C@@H](COP(=O)(O)OP(=O)(O)OP(=O)(O)O)O2)c(=O)[nH]1 | HIV | - | RT-Y181I | Reverse transcriptase | nucleotide incorporation | IC50 | - | 0.06 µM
Cc1cc(SC2=C(O)CC(CCc3ccc(O)cc3)(C3CCCCC3)OC2=O)c(C(C)(C)C)cc1CO | HIV-1 | - | PR-V82F I84V | Protease | HPLC / absorbance | fold resistance | - | 9.3
O=C1c2c(O)cc(O[C@@H]3C[C@@H](O)[C@H](O)[C@@H](CO)O3)cc2O[C@H](c2ccc(O)cc2)[C@H]1O | HIV-1 | - | - | gp120 | ELISA | inhibition | 250 µg/mL | 40%
O=C1OCC2OC(O)C(O)C(O)C2OC(=O)c2cc(O)c(O)c(O)c2-c2c(O)c(O)c3oc(=O)c4c(c(O)c(O)c5oc(=O)c2c3c54)-c2c1cc(O)c(O)c2O | HIV-1 | - | - | RNase H + Reverse transcriptase | ELISA / RNase H | IC50 | - | 0.18 µM
CNC(=O)[C@@H](NC(=O)[C@H](OCc1ccccc1)[C@H](O)[C@@H](O)[C@@H](OCc1ccccc1)C(=O)N[C@H]1c2ccccc2C[C@H]1O)C(C)C | HIV-1 | - | PR-I84V | Protease | - | fold resistance | - | 6.3
CCCCCCC[C@H](O)C[C@@H]1CC[C@H]2C(C(=O)O[C@@H](C)CCCCCCC[C@@H]3C[C@@H]4CC[C@@H]5C[C@H](C)NC(=[N+]54)N3)=C(C)NC(N)=[N+]12 | HIV-1 | NL4-3 | - | Nef | ELISA | inhibition | 5 µM | 84.5%
NC(=O)c1c(N)sc2c1CCCCC2 | HIV-1 | - | - | RNase H | fluorescence | IC50 | - | 4 µM
CCCCCCCCC[C@@H]1C[C@@H]2CC[C@H]3C(C(=O)OC(C)(C)C)=C(C)NC(=[N+]23)N1 | HIV-1 | NL4-3 | - | Nef | ELISA | IC50 | - | <5 µM
Cc1cc(SC2=C(O)C[C@@](CCc3ccc(O)cc3)(C(C)C)OC2=O)c(C(C)(C)C)cc1CO | HIV-1 | - | PR-V82F I84V | Protease | HPLC / absorbance | fold resistance | - | <3
CC[C@H]1C=CCC[C@@]2(C[C@@H]3CC[C@@H]4[C@H](C(=O)OC/C=C/c5ccccc5)[C@]5(CCC[C@@H](C)O5)NC(=[N+]34)N2)O1 | HIV-1 | NL4-3 | - | Nef | ELISA | inhibition | 5 µM | 81.2%
CC(C)[C@H](NC(=O)c1ccc2ccccc2n1)C(=O)N[C@@H](Cc1ccccc1)[C@H](O)CN1CC[C@@H](OCc2ccncc2)C[C@H]1C(=O)NC(C)(C)C | HIV-2 | ROD | - | Protease | fluorescence | IC50 | - | 0.01 µM
O=C(O)c1ccc(-c2cccc(/C=N/NC(=O)c3cc(O)c(O)c(O)c3)c2)cc1 | HIV-1 | - | I505V (179) | RNase H | - | IC50 | - | 0.3 µM
CC[C@H]1C(=O)Nc2ccc(F)cc2N1C(=O)OC(C)C | HIV | - | RT-N137D | Reverse transcriptase | nucleotide incorporation / radiometric | IC50 | - | 0.011 µM
O=C(/C=C/c1ccc(O)cc1)OC[C@H]1O[C@@H](Oc2c(-c3ccc(O)cc3)oc3cc(O)cc(O)c3c2=O)[C@H](O)[C@@H](O)[C@@H]1O | HIV-1 | - | - | gp120 | binding | inhibition | 30 µg/mL | ~58%
COc1ccc(CN[C@@H](C(=O)N[C@H](C(=O)NCc2ccc(OC)cc2O)C(C)C)[C@H](O)[C@H](Cc2ccccc2)NC(=O)[C@@H](NC(=O)OCc2ccccc2)C(C)C)cc1 | HIV-2 | - | - | Protease | substrate cleavage | Ki | - | 0.01 µM
COc1ccc2c(c1)N(C(=O)OC(C)C)[C@@H](CSC)C(=S)N2 | HIV | - | RT-D67N K70R T215F K219Q Y181C | Reverse transcriptase | RT activity | IC50 | - | 0.027 µg/mL
Cc1cn([C@@H]2O[C@H](CO[Si](C)(C)C(C)(C)C)C3(OS(=O)(=O)C=C3N)[C@H]2O[Si](C)(C)C(C)(C)C)c(=O)n(C)c1=O | HIV | - | RT-N137Q | Reverse transcriptase | nucleotide incorporation / radiometric | fold resistance | - | 0.5
O=C1c2ccccc2[Se](=O)N1c1ccccc1 | HIV-1 | - | - | Capsid | FRET / fluorescence | IC50 | - | 0.0512 µM
O=c1cc(-c2ccccc2)oc2cc(O)cc(O)c12 | HIV-1 | IIIB | - | gp120 | ELISA | inhibition | 10 µg/mL | 0%
CC(C)c1nc(C(=O)NCc2ccc(F)cc2)c(O)c(=O)n1C | HIV-1 | - | - | RNase H | substrate cleavage | IC50 | - | 11.9 µM
Cc1cc(SC2=C(O)C[C@@](CCc3ccc(N)cc3)(C(C)C)OC2=O)c(C(C)(C)C)cc1CO | HIV-1 | - | PR-V82A | Protease | HPLC / absorbance | fold resistance | - | 1.3
O=C1c2c(O)cc(O)cc2O[C@H](c2ccc(O)cc2)[C@H]1O | HIV-1 | - | - | gp120 | ELISA | inhibition | 60 µg/mL | >80%
CCCCCCC[C@H](O)C[C@@H]1CC[C@H]2C(C(=O)O[C@H](C)CCCCCCC[C@@H]3C[C@@H]4CC[C@@H]5C[C@H](C)NC(=[N+]54)N3)=C(C)NC(N)=[N+]12 | HIV-1 | NL4-3 | - | Nef | ELISA | IC50 | - | <5 µM
O=C(OCC1OC(OCCc2ccccc2)C(O)C(O)C1O)c1cc(O)c(O)c(O)c1 | HIV-1 | - | - | gp120 | binding | inhibition | 9 µg/mL | ~59%
O=C(O[C@@H]1Cc2c(O)cc(O)cc2O[C@@H]1c1ccc(O)c(O)c1)c1cc(O)c(O)c(O)c1 | HIV-1 | IIIB | - | gp120 | ELISA | inhibition | 0.4 µg/mL | 37%
Cc1cn([C@@H]2O[C@H](CO[Si](C)(C)C(C)(C)C)C3(OS(=O)(=O)C=C3N)[C@H]2O[Si](C)(C)C(C)(C)C)c(=O)n(C)c1=O | HIV | - | RT-E138K | Reverse transcriptase | nucleotide incorporation | fold resistance | - | >183
Nc1ncc2[nH]cnc2n1 | HIV-1 | LAV | - | Tat:TAR/LTR | - | Ki | - | 6 µM
CC(C)Nc1cccnc1N1CCN(C(=O)c2cc3ccccc3[nH]2)CC1 | HIV | - | RT-V106A | Reverse transcriptase | nucleotide incorporation | fold resistance | - | 9.38
O=C1C[C@@H](c2ccc(O)cc2)Oc2cc(O[C@@H]3C[C@@H](O)[C@H](O)[C@@H](CO)O3)cc(O)c21 | HIV-1 | - | - | gp120 | ELISA | inhibition | 80 µg/mL | 53%
NC(N)=NCCC[C@H](N)C(=O)NC[C@@H]1OC(O[C@H]2[C@@H](O)[C@H](O[C@@H]3[C@@H](O)[C@H](NC(=O)[C@@H](N)CCCN=C(N)N)C[C@H](NC(=O)[C@@H](N)CCCN=C(N)N)[C@H]3O[C@H]3O[C@H](CNC(=O)[C@@H](N)CCCN=C(N)N)[C@@H](O)[C@H](O)[C@H]3NC(=O)[C@@H](N)CCCN=C(N)N)O[C@@H]2CO)[C@H](NC(=O)[C@@H](N)CCCN=C(N)N)[C@@H](O)[C@@H]1O | HIV-1 | - | - | Tat:TAR/LTR | - | IC50 | - | >110 µM

A second listing of 5 rows from above:

SMILES	agent	strain	mutations	target	read by	read-out	dose	value
Cc1cn([C@@H]2O[C@H](CO[Si](C)(C)C(C)(C)C)C3(OS(=O)(=O)C=C3N)[C@H]2O[Si](C)(C)C(C)(C)C)c(=O)n(C)c1=O	HIV	-	RT-N137Q	Reverse transcriptase	nucleotide incorporation / radiometric	fold resistance	-	0.5
COc1cc2c(cc1OC)[C@H](c1cc(OC)c(OC)c(OC)c1)[C@@H](C)[C@@H](C)C2	HIV-1	-	-	RNase H	RNase H	IC50	-	>10 µM
CC[C@H]1C=CCC[C@@]2(C[C@@H]3CC[C@@H]4[C@H](C(=O)OC/C=C/c5ccccc5)[C@]5(CCC[C@@H](C)O5)NC(=[N+]34)N2)O1	HIV-1	NL4-3	-	Nef	ELISA	inhibition	5 µM	81.2%
CC[C@H]1C=CCC[C@@]2(C[C@@H]3CC[C@@H]4[C@H](C(=O)OCCCCCC(=O)N(CCC[NH3+])C[C@@H](O)CC[NH3+])[C@]5(CCC[C@@H](C)O5)NC(=[N+]34)N2)O1	HIV-1	NL4-3	-	Nef	ELISA	IC50	-	<5 µM
Nc1ncc2[nH]cnc2n1	HIV-1	LAV	-	Tat:TAR/LTR	-	Ki	-	6 µM

ICn is the concentration giving n% inhibition. Fold resistance has wild type as its base. Percent inhibition refers to the dose given; in toxicity tests it is the harm to the cells. Rows are shuffled and stem from different studies.